Experimental data published in ChEMBL document CHEMBL3046506 (2006).

Legend:
Pyricularia oryzae [1] = assay: Antifungal activity against MBI-D-resistant Magnaporthe oryzae SW (OYU-1) with Val75Met SDH mutant in rice seedlings assessed as preventive value of rice blast at 5 ug/ml foliar spray at 26 degC by pot test
Pyricularia oryzae [2] = assay: Antifungal activity against MBI-D-resistant Magnaporthe oryzae SW (OYU-1) with Val75Met SDH mutant in rice seedlings assessed as preventive value of rice blast at 5 ug/ml systemic application at 22 to 30 degC by pot test

Structure (SMILES): CCC1(C(=O)NC(C)c2cc(Cl)cs2)C(C)C1(Cl)Cl (configuration not stated)
- Activity (Pyricularia oryzae [1]): < 40%
- Activity (Pyricularia oryzae [2]): <=40%

Structure (SMILES): CCC1(C(=O)NC(C)c2cc(Cl)c(Cl)s2)C(C)C1(Cl)Cl (configuration not stated)
- Activity (Pyricularia oryzae [1]): < 40%
- Activity (Pyricularia oryzae [2]): <=40%

Structure (SMILES): CCC1(C(=O)NCCc2cccc(Cl)c2)C(C)C1(Cl)Cl (configuration not stated)
- Activity (Pyricularia oryzae [1]): <=40%

Structure (SMILES): CCC1(C(=O)NCC(C)c2ccc(Cl)cc2)C(C)C1(Cl)Cl (configuration not stated)
- Activity (Pyricularia oryzae [2]): <=40%

Structure (SMILES): CCC1(C(=O)NCCc2cc(Cl)cs2)C(C)C1(Cl)Cl (configuration not stated)
- Activity (Pyricularia oryzae [1]): 65%
- Activity (Pyricularia oryzae [2]): 65%

Structure (SMILES): CCC1(C(=O)NCCc2ccsc2)C(C)C1(Cl)Cl (configuration not stated)
- Activity (Pyricularia oryzae [1]): < 40%
- Activity (Pyricularia oryzae [2]): < 40%

Structure (SMILES): CCC1(C(=O)NCCc2cc(Cl)sc2Cl)C(C)C1(Cl)Cl (configuration not stated)
- Activity (Pyricularia oryzae [1]): 65%
- Activity (Pyricularia oryzae [2]): <=40%

Structure (SMILES): CC[C@@]1(C(=O)N[C@H](C)c2ccc(Cl)cc2)[C@@H](C)C1(Cl)Cl (mixture of isomers) [CARPROPAMIDE]
- Activity (Pyricularia oryzae [1]): 40%
- Activity (Pyricularia oryzae [2]): 40%

Structure (SMILES): CCC1(C(=O)NCCc2ccc(C(F)(F)F)cc2)C(C)C1(Cl)Cl (configuration not stated)
- Activity (Pyricularia oryzae [2]): 65%

Structure (SMILES): CC(C)(C)C(Cl)C(=O)NCCc1csc(Cl)c1 (configuration not stated)
- Activity (Pyricularia oryzae [1]): <=40%
- Activity (Pyricularia oryzae [2]): <=40%

Structure (SMILES): CCC1(C(=O)NCCCc2ccc(Cl)cc2)C(C)C1(Cl)Cl (configuration not stated)
- Activity (Pyricularia oryzae [1]): < 40%
- Activity (Pyricularia oryzae [2]): <=40%

Structure (SMILES): CCC1(C(=O)NC(C)c2csc(Cl)c2)C(C)C1(Cl)Cl (configuration not stated)
- Activity (Pyricularia oryzae [1]): < 40%
- Activity (Pyricularia oryzae [2]): <=40%

Structure (SMILES): CC1C(Cl)(Cl)C1(C)C(=O)NCCc1csc(Cl)c1 (configuration not stated)
- Activity (Pyricularia oryzae [1]): < 40%
- Activity (Pyricularia oryzae [2]): < 40%

Structure (SMILES): CCC1(C(=O)NC(C)Cc2ccc(Cl)cc2)C(C)C1(Cl)Cl (configuration not stated)
- Activity (Pyricularia oryzae [2]): <=40%

Structure (SMILES): CCC1(C(=O)NCCc2cc(Cl)c(Cl)s2)C(C)C1(Cl)Cl (configuration not stated)
- Activity (Pyricularia oryzae [2]): <=40%

Structure (SMILES): CCC1(C(=O)NCCc2ccc(Br)cc2)C(C)C1(Cl)Cl (configuration not stated)
- Activity (Pyricularia oryzae [1]): 40%

Structure (SMILES): CCC1(C(=O)NCc2ccc(Cl)cc2)C(C)C1(Cl)Cl (configuration not stated)
- Activity (Pyricularia oryzae [1]): < 40%
- Activity (Pyricularia oryzae [2]): <=40%

Structure (SMILES): CCC1(C(=O)NC(C)c2ccc(Cl)s2)C(C)C1(Cl)Cl (configuration not stated)
- Activity (Pyricularia oryzae [1]): < 40%
- Activity (Pyricularia oryzae [2]): < 40%

Structure (SMILES): CCC1(C(=O)NC(C)C2CCCC2)C(C)C1(Cl)Cl (configuration not stated)
- Activity (Pyricularia oryzae [1]): <=40%

Structure (SMILES): CCC1(C(=O)NCCc2ccc(Cl)s2)C(C)C1(Cl)Cl (configuration not stated)
- Activity (Pyricularia oryzae [2]): 65%
